Laboratory results published in patent US11413279B2, “Methods and compositions for the antiviral use of synthetic lysine analogs and mimetics” (priority 2017, dated 2022).

Test system: cell medium used for HIV-1

## NC[C@H]1CC[C@H](C(=O)O)CC1 [Tranexamic Acid, tranexamic acid]
  maximum concentration that could be used without cytotoxicity: 4 % (w/v)
